From publication PMC11139879, “Structural insights into the DNA topoisomerase II of the African swine fever virus” (2023)

Target: African swine fever virus type II topoisomerase pP1192R, full-length (African swine fever virus) (UniProt Q00942)
Assay: cryo-EM structure

For “African swine fever virus type II topoisomerase pP1192R, full-length (from UniProt Q00942 1-1192) (enzyme)”, the stoichiometry N was 2.
